Measured values from several laboratories, pooled; numbers as filed in NIAID ChemDB.

Common to all: whole-cell or culture tests; species: Vaccinia virus; cell line: PRK; endpoint: EC50

Conditions beyond the fields shown may differ between rows. ECn: concentration that inhibits the pathogen or its effect by n%.

smiles,value
NC(=O)c1ncn([C@@H]2O[C@H](CO)[C@@H](O)[C@H]2O)c1C#CCO,1 µg/mL
Nc1ncnc2c1c(Br)cn2[C@@H]1O[C@H](CO)[C@@H](O)[C@H]1O,0.02 µg/mL
Nc1nccc2c1ncn2[C@@H]1C[C@H](CO)[C@@H](O)[C@H]1O,2 µg/mL
O=c1[nH]c(=O)n([C@H]2C[C@H](O)[C@@H](CO)O2)cc1Cl,0.2 µg/mL
Nc1ccn([C@@H]2C[C@H](CO)[C@@H](O)[C@H]2O)c(=O)n1,15 µg/mL
Nc1ncnc2c1ccn2[C@@H]1O[C@H](CO)[C@@H](O)[C@H]1O,0.07 µg/mL
CCc1cn([C@H]2C[C@H](O)[C@@H](CO)O2)c(=O)[nH]c1=O,1 µg/mL
Nc1nccc2c1ncn2[C@@H]1C[C@H](CO)[C@@H](O)[C@H]1O,0.8 µg/mL
Nc1ncnc2c1c(Br)cn2[C@@H]1O[C@H](CO)[C@@H](O)[C@H]1O,0.07 µg/mL
Nc1nccc2c1ncn2[C@@H]1C=C[C@@H](O)[C@H]1O,0.7 µg/mL
NC(=O)c1ncn([C@@H]2O[C@H](CO)[C@@H](O)[C@H]2O)c1C#Cc1ccccc1,300 µg/mL
C#Cc1cn([C@H]2C[C@H](O)[C@@H](CO)O2)c(=O)[nH]c1=O,0.2 µg/mL
Nc1ncnc2c1ncn2C1CC(CO)[C@@H](O)[C@H]1O,2 µg/mL
Nc1ncnc2c1ccn2[C@@H]1O[C@H](CO)[C@@H](O)[C@H]1O,0.07 µg/mL
C#Cc1c(C(N)=O)ncn1[C@@H]1O[C@H](CO)[C@@H](O)[C@H]1O,0.2 µg/mL
Nc1ncnc2c1ncn2C[C@@H](O)[C@H](O)C(=O)O,70 µg/mL
Nc1nccc2c1ncn2[C@@H]1O[C@H](CO)[C@@H](O)[C@H]1O,7 µg/mL
Nc1ncnc2c1ncn2[C@@H]1C=C(CO)[C@@H](O)[C@H]1O,0.02 µg/mL
NC(=O)c1ncn([C@@H]2O[C@H](CO)[C@@H](O)[C@H]2O)c1C#CCCO,2 µg/mL

For reference, 2 entries again:

smiles | value
Nc1nccc2c1ncn2[C@@H]1C[C@H](CO)[C@@H](O)[C@H]1O | 2 µg/mL
Nc1ncnc2c1ccn2[C@@H]1O[C@H](CO)[C@@H](O)[C@H]1O | 0.07 µg/mL